US20170081324A1 (priority 2015, published 2017)

The compounds below were run against PB2 cap binding domain (PB2-CBD) (residues 318-483) (Influenza A virus, UniProt Q2LG68) (assay: Cap Fluorescence-Polarization Ligand Displacement (CapFP-LD) assay). Conditions: read-out: Fp Ki, m7GTP-5FAM tracer displacement.

| Compound | Ki |
| --- | --- |
| COC(=O)C[C@@H](Nc1nc(-c2ccc3n[nH]c(=O)n3c2)ncc1F)C(C)C | 39.7 µM |
| COC(=O)[C@@H](Nc1nc(-c2ccc3n[nH]c(=O)n3c2)ncc1F)C(C)C | 176 µM |
| O=c1[nH]nc2ccc(-c3ncc(F)c(NC4CCCCC4)n3)cn12 | 19.8 µM |
| O=C(N[C@@H]1CCC[C@H](Nc2nc(-c3ccc4n[nH]c(=O)n4c3)ncc2F)C1)N1CCCC1 | 9.9 µM |
| O=c1[nH]nc2ccc(-c3ncc(F)c(NCCO)n3)cn12 | 27.3 µM |

Same assay, conditions: read-out: Fp, m7GTP-5FAM tracer displacement, quantity not given

| Compound | Ki |
| --- | --- |
| O=C(N[C@@H]1CCC[C@H](Nc2nc(-c3cccc4n[nH]c(=O)n34)ncc2F)C1)N1CCCC1 [reference compound] | > 50 µM |
| COC(=O)CC(Nc1nc(-c2ccc3n[nH]c(=O)n3c2)ncc1F)C1CC1 (stereo not shown) | > 50 µM |
